Among the data in patent US20090099343A1, “Isolation of pathogenic prions” (priority 2005, published 2009) are ELISA A405nm values, retold here.

This test has as its target PrP^Sc, pathogenic prion protein in brain homogenate of RML PrP^Sc+ Balb-c mice (mouse), P04925.

As for QWNKPSKGKTN [Peptide reagent SEQ ID NO:109], the ELISA A405nm worked out at 0.865 A405nm. In turn, QWNKPSKGKTN [Peptide reagent SEQ ID NO:113] displayed an ELISA A405nm of 2.04 A405nm. QWNKPSKGKTN [Peptide reagent SEQ ID NO:112] gave an ELISA A405nm of 0.974 A405nm. QWNKPSKGKTN [Peptide reagent SEQ ID NO:114] gave an ELISA A405nm of 0.776 A405nm.
